# According to patent US9115407B2, “Ratiometric pre-rRNA analysis” (dated 2015):
# Key:
# A. hydrophila [1] = assay: Viable plating of A. hydrophila cell suspensions after chlorine exposure; conditions: for Percent viability: normalized to estimated 1 × 10^6 input bacteria
# A. hydrophila [2] = assay: Ratiometric pre-rRNA analysis (RT-qPCR) of chlorine-treated cell suspensions after 1 hour of nutritional stimulation; conditions: mean ± SD of 3 replicate samples
# [3] = Experiment 1, hypochlorite 1 mg/l
# [4] = Experiment 1, hypochlorite 2 mg/l
# [5] = Experiment 1, hypochlorite 3 mg/l
# [6] = Experiment 1, hypochlorite 4 mg/l
# [7] = Experiment 2, hypochlorite 1 mg/l
# [8] = Experiment 2, hypochlorite 1.5 mg/l
# [9] = Experiment 2, hypochlorite 2 mg/l
substance,measurement,setting,value
sodium hypochlorite,Final cfu/mL,A. hydrophila [1]; [3],279000 cfu/mL
same,Percent viability,A. hydrophila [1]; [3],27.9%
same,Final cfu/mL,A. hydrophila [1]; [4],190 cfu/mL
same,Percent viability,A. hydrophila [1]; [4],0.02%
same,Final cfu/mL,A. hydrophila [1]; [5],0 cfu/mL
same,Percent viability,A. hydrophila [1]; [5],0%
same,Final cfu/mL,A. hydrophila [1]; [6],0 cfu/mL
same,Percent viability,A. hydrophila [1]; [6],0%
same,Final cfu/mL,A. hydrophila [1]; [7],846000 cfu/mL
same,Percent viability,A. hydrophila [1]; [7],84.6%
same,Final cfu/mL,A. hydrophila [1]; [8],186000 cfu/mL
same,Percent viability,A. hydrophila [1]; [8],18.6%
same,Final cfu/mL,A. hydrophila [1]; [9],0 cfu/mL
same,Percent viability,A. hydrophila [1]; [9],0%
same,Pre-rRNA stimulation ratio,A. hydrophila [2]; [3],17.2 ± 3.6
same,Pre-rRNA stimulation ratio,A. hydrophila [2]; [4],73.0 ± 54.2
same,Pre-rRNA stimulation ratio,A. hydrophila [2]; [5],0.6 ± 1.0
same,Pre-rRNA stimulation ratio,A. hydrophila [2]; [6],0.04 ± 0.1
same,Pre-rRNA stimulation ratio,A. hydrophila [2]; [7],17.44 ± 5.4
same,Pre-rRNA stimulation ratio,A. hydrophila [2]; [8],16.47 ± 6.6
same,Pre-rRNA stimulation ratio,A. hydrophila [2]; [9],1.28 ± 0.4
